Measurements as given in publication PMC4708007 (Bioscience Reports, 2015).

Columns and labels:
[1] = test system: Nc1nc2c(ncn2[C@@H]2O[C@H](COP(=O)(O)OP(=O)(O)OP(=O)(O)O)[C@@H](O)[C@H]2O)c(=O)[nH]1; assay: purified protein; conditions: pH 8.0; 30.0 °C
[2] = test system: Nc1ncnc2c1ncn2[C@@H]1O[C@H](COP(=O)(O)OP(=O)(O)OP(=O)(O)O)[C@@H](O)[C@H]1O; assay: purified protein; conditions: pH 8.0; 30.0 °C

“FtRelA (Francisella tularensis subsp. tularensis SCHU S4)” was tested, and the K0.5 [1] was 800.7 ± 115.6 µM, the kcat [1] was 0.0106 s⁻¹ and the K0.5 [2] was 259 ± 37.2 µM. For the same substance, the kcat [2] was 0.00946 s⁻¹.
